The values below come from US20130261077A1 (priority 2012, published 2013).

By UniProt entry, the sequences of proteins in these tests, tags left out. Residues count along the entry.
UniProt P08191, 22-177 limits assumed: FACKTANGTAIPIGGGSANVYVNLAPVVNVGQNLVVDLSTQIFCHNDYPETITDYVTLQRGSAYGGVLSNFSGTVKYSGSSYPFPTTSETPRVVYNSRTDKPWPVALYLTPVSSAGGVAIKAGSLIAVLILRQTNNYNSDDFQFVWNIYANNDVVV

This experiment addresses FimH-CRD (Escherichia coli, UniProt P08191). Description: Competitive binding assay by fluorescence polarization, assay 2 (compounds prepared by robotics, plates frozen and thawed). To be noted: read-out: Assay 2 Kd (μM) ± Standard error of the mean (number of repeats); 5 nM Alexa 647 mannoside probe, 60 nM FimH-CRD, 5 hrs at room temperature; robotics dilution, frozen plates. The protocol: The first 177 amino acids of the FimH protein were expressed as a fusion protein with thrombin in a pET21b plasmid in bacteria. This FimH protein sequence contains the carbohydrate recognition domain (CRD) and shall be termed FimH-CRD. Following bacterial expression of the protein, the FimH-CRD protein was purified to homogeneity and the thrombin tag removed by protease cleavage. A competitive binding assay by fluorescence polarization was performed using 5 nM of the Alexa 647 mannoside probe and 60 nM of the FimH-CRD. The samples are assayed in a low volume 384 well microtiter plate in a final volume of 20 μl. The final assay buffer conditions are the following, 50 mM Tris-Cl, ph 7.0, 100 mM NaCl, 1 mM EDTA, 5 mM β-mercaptoethanol, 0.05% BSA and 2.5% DMSO. Two assays are performed for FimH, termed assay 1 or assay 2. […] Plates are read using the SpectraMax Paradigm multi-mode plate reader and the appropriate fluorescent polarization detection cartridge (Alexa-647). […]
The Kd values of the compounds are determined from dose response curves using twelve concentrations per compound in duplicate. Curves are fitted to data points using Fluorescence Polarization competitive displacement analysis, and Kds are interpolated from the resulting curves using GraphPad Prism software, version […] (GraphPad software Inc., San Diego, Calif., USA).
For orientation: Fluorescence polarisation rises when a labelled molecule tumbles more slowly, as on binding a larger partner.

Broadly, the Kd is the free concentration of one partner at which half of the binding sites on the other are occupied at equilibrium, for simple one-to-one binding.

`Cc1nnc(-c2ccc(-c3cccc([C@H]4O[C@H](CO)[C@@H](O)[C@H](O)[C@@H]4O)c3C)c(C)c2)o1`: the Kd was 0.0228 µM.
